These results are taken from US20230357367A1.

Experiment [1] has as its target T1, SARS-CoV-2 spike S2 peptide 1143-1162 (stem helix region), biotinylated (SARS-CoV-2). Nature of the experiment: SPR, Fab over captured biotin-peptide, 25 C. (Surface plasmon resonance follows binding to a sensor surface in real time, without labels.)
For experiment [2], the target named is SARS-CoV-2 spike S2 peptide 1141-1155, biotinylated (SARS-CoV-2). Nature of the experiment: DELFIA, IgG titrated on captured biotin-peptide. More on the design: unit not given beside the values.
In experiment [3] the target is T1, SARS-CoV-2 spike S2 peptide 1143-1162 …. Nature of the experiment: DELFIA, IgG titrated on captured biotin-peptide. More on the design: unit not given beside the values.

B1: Reference Antibody Fab (Fab, V domains shown)
VH: EVQLVESGAEVKKPGESLKISCKGSGYTFTRYWIGWVRQMPGKGLEWMGIIYPGDSDTRYSPSFQGHVTISADKSISTAYLQWNSLKASDTAMYYCARLPQYCSNGVCQRWFDPWGQGTLVTVSS
VL: EIVLTQSPSSVSASVGDRVTITCRASQGISSWLAWYQQKPGKAPKLLIYAASSLQSGVPSRFSGSGSGTDFTLTISSLQPEDFATYYCQQGNSFPYTFGQGTNLEIK
As to B1, in experiment [1], the dissociation constant Kd came to 64.2 nM, the koff amounted to 0.0306 s⁻¹ and the kon amounted to 477000 M⁻¹ s⁻¹.

B2: Reference Antibody (antibody, V domains shown)
VH: EVQLVESGAEVKKPGESLKISCKGSGYTFTRYWIGWVRQMPGKGLEWMGIIYPGDSDTRYSPSFQGHVTISADKSISTAYLQWNSLKASDTAMYYCARLPQYCSNGVCQRWFDPWGQGTLVTVSS
VL: EIVLTQSPSSVSASVGDRVTITCRASQGISSWLAWYQQKPGKAPKLLIYAASSLQSGVPSRFSGSGSGTDFTLTISSLQPEDFATYYCQQGNSFPYTFGQGTNLEIK
On to B2, for which the AUC in experiment [2] was found to be 2270; in experiment [3], 3.25e+06.

Broadly, the Kd is the concentration at which binding is half-saturated. In general, koff refers to a measure of how fast the partners let go of each other. What is called kon is the rate constant with which the complex forms.
